Results of unrelated studies side by side (data: NIAID ChemDB).

Shared fields: toxicity to cultured cells; cell line: MT-4; read by: MTT; endpoint: CC50

Neighbouring rows are from separate reports.

structure	value
CC1=C(C(=O)Nc2cc(C)ccc2C)C2=NN=C(N)C2C(=O)N1	49.5 µg/mL
C=C(c1cc(OC)cc(OC)c1)c1c(C)c(=O)[nH]c(=O)n1COCc1ccccc1	133 µM
COc1cc(OC)cc(OCc2nc3ccccc3n3cccc23)c1	>100 µM
COC(=O)/C=C1\S/C(=N/N=C/c2ccc(N(C)C)cc2)NC1=O	87.25 µM
COc1ccc(CCNc2nc(NC(=O)Nc3ccc(F)cc3)nc(Oc3cc(=O)oc4ccccc34)n2)cc1OC	19.75 µg/mL
CC(=O)Nc1nc(-c2ccc(S(=O)(=O)N(CC(C)C)C[C@@H](O)[C@H](Cc3ccccc3)NC(=O)O[C@H]3CO[C@H]4OCC[C@H]43)cc2)cs1	77.6 µM
Cc1c(C(C)c2cccc(F)c2)n(COCc2ccccc2)c(=O)[nH]c1=O	>339.3 µM
CCOC(=O)CNc1nc(Nc2ccccc2C)nc(Oc2cc(=O)oc3ccccc23)n1	23.12 µg/mL
COc1cc(OC)cc(OCc2nc3cc(C(F)(F)F)ccc3n3cccc23)c1	>100 µM
CCOC(=O)c1[nH]c2ccccc2c1Cc1ccccc1Cl	>80 µM
CC1=C(C(=O)Nc2cc(Cl)ccc2Cl)C2=NN=C(N)C2C(=O)N1	48.8 µg/mL
CCN1CCn2c(=S)[nH]c3cc(Cl)cc(c32)S1(=O)=O	>200 µM
CCOCn1c(Cc2ccccc2)c(C(C)C)c(=O)[nH]c1=O	>100 µM
COc1ccc(-c2ccc(N=Nc3c(N)nc(=O)n(C)c3N(Cc3ccccc3)Cc3ccccc3)cc2)cc1OC	2.29 µM
O=c1ccn([C@@H]2O[C@H](CO)[C@@H](O)[C@H]2O)c2cc(F)ccc12	31–125 µg/mL
COC(=O)/C=C1\S/C(=N/N=C/c2ccccc2Br)NC1=O	13.45 µM
CC1=C[C@H](Cn2cnc3c(=O)[nH]c(N)nc32)C[C@@H]1CO	>100 µg/mL
CC1=C(C(=O)Nc2ccc(Cl)cc2)C2=NN=C(N)C2C(=O)N1	92.6 µg/mL
O=C(O)c1ccc(Nc2nc3ccccc3n3cccc23)cc1	100 µM
Cc1c(C(C)(O)c2cccc(C(F)(F)F)c2)n(COCc2ccccc2)c(=O)[nH]c1=O	91.9 µM
CCc1c(Cc2cc(C)cc(C)c2)n(COCC#Cc2cccc(C=O)c2)c(=O)[nH]c1=O	42 µM
COc1ccc(CCNc2nc(NC(=O)Nc3ccccc3)nc(Oc3cc(=O)oc4ccccc34)n2)cc1OC	86.93 µg/mL
O=C(Cc1ccccn1)NNC(=S)Nc1ccc(Cl)c(Cl)c1	>100 µM
CCOC(=O)C(C)N(CC=C(C)C)S(=O)(=O)c1cc(Cl)ccc1[N+](=O)[O-]	91 µM
CCc1c(CC2CCCc3ccccc32)n(COCC=C(C)C)c(=O)[nH]c1=O	30 µM
CCOC(=O)C(C)N(CC)S(=O)(=O)c1cc(Cl)ccc1N	>200 µM
Cn1c(Cl)c(N=Nc2ccc(Cl)cc2)c(N)nc1=O	2.15 µM
CC1=C[C@H](Cn2cnc3c(NC4CC4)ncnc32)C[C@@H]1CO	>100 µg/mL
Cc1ccc(C(C)c2c(C)c(=O)[nH]c(=O)n2COCc2ccccc2)cc1	>343 µM
CC1C(=S)Nc2ccc(Cl)cc2S(=O)(=O)N1Cc1cc(Cl)cc(Cl)c1	90 µM
O=c1ccn([C@@H]2O[C@H](CO)[C@@H](O)[C@H]2O)c2ccc(F)cc12	31–125 µg/mL
Cc1cccc(C(C)(O)c2c(C)c(=O)[nH]c(=O)n2COCc2ccccc2)c1	133 µM
O=C(O)CCC(NC(=O)c1ccc(OCc2nc3cc(C(F)(F)F)ccc3n3cccc23)cc1)C(=O)O	>100 µM
Cn1c(N2CCOCC2)c(N=Nc2ccc(Cl)cc2)c(N)nc1=O	12.22 µM
CC=CCN1C(C)C(=S)Nc2ccc(Cl)cc2S1(=O)=O	57 µM
CCc1c(Cc2ccccc2C)n(COCC#Cc2ccc(N)cc2)c(=O)[nH]c1=O	39 µM
Fc1ccc(Nc2nnc(Cc3ccccn3)s2)cc1Cl	>100 µM
CCc1c(Cc2ccccc2C)n(COCC#CC2c3ccccc3-c3ccccc32)c(=O)[nH]c1=O	50 µM
COC(=O)/C=C1\S/C(=N/N=C/c2cc(OC)c(O)c(OC)c2)NC1=O	14.5 µM
CCOC(=O)CNc1nc(Nc2ccc(Br)cc2)nc(Oc2cc(=O)oc3ccccc23)n1	51.28 µg/mL
CCc1c(Cc2cc(C)cc(C)c2)n(COCC#CC#CCO)c(=O)[nH]c1=O	40 µM
COc1cc(OC)cc(C(C)(O)c2c(C)c(=O)[nH]c(=O)n2COCc2ccccc2)c1	144 µM
CC1C(=O)Nc2ccc(Cl)cc2S(=O)(=O)N1CC1CC1	>200 µM
CC(C)CN(C[C@@H](O)[C@H](Cc1ccccc1)NC(=O)O[C@H]1CO[C@H]2OCC[C@H]21)S(=O)(=O)c1ccc(-c2coc(-c3cccs3)n2)cc1	>32.4 µM
CCc1c(Cc2ccccc2C)n(COCC#Cc2cccc3ccccc23)c(=O)[nH]c1=O	34 µM
Cn1c(-c2ccc(F)cc2)cc(N)nc1=O	19.35 µM
Cc1ccc(NC(=S)NNC(=O)Cc2ccccn2)cc1Cl	>100 µM
COC(=O)/C=C1\S/C(=N/N=C/c2ccccc2Cl)NC1=O	78.7 µM
CCOC(=O)CNc1nc(NC(=O)Nc2cccc(C)c2)nc(Oc2cc(=O)oc3ccccc23)n1	14.23 µg/mL
Clc1ccc(Nc2nnc(Cc3ccccn3)s2)cc1Cl	>100 µM
Cc1c(C(C)(O)c2ccccc2F)n(COCc2ccccc2)c(=O)[nH]c1=O	185 µM
CC(C)Cc1nc(-c2ccc(S(=O)(=O)N(CC(C)C)C[C@@H](O)[C@H](Cc3ccccc3)NC(=O)O[C@H]3CO[C@H]4OCC[C@H]43)cc2)co1	>32.4 µM
CCC(O)(c1ccc(C)cc1)c1c(C)c(=O)[nH]c(=O)n1COCc1ccccc1	6.82 µM
CCOC(=O)CNc1nc(Nc2ccccc2Cl)nc(Oc2cc(=O)oc3ccccc23)n1	67.7 µg/mL
CCc1c(Cc2ccccc2C)n(COCC#Cc2ccc(NC(=O)C(F)(F)F)cc2)c(=O)[nH]c1=O	45 µM
CCOC(=O)c1ccc(-c2ccc(N=Nc3c(N)nc(=O)n(C)c3-c3ccc(C(=O)OCC)cc3)cc2)cc1	28.24 µM
CCc1c(Cc2cc(C)cc(C)c2)n(COCC#Cc2cccc(CO[Si](c3ccccc3)(c3ccccc3)C(C)(C)C)c2)c(=O)[nH]c1=O	>100 µM
COc1ccc(-c2ccc(N=Nc3c(N)nc(=O)n(C)c3N3CCCCC3)cc2)cc1OC	18.15 µM
COc1cc(Nc2nc3cc(C(F)(F)F)ccc3n3cccc23)cc(OC)c1OC	57 µM
COc1ccc(CCNc2nc(NC(=O)Nc3ccccc3C)nc(Oc3cc(=O)oc4ccccc34)n2)cc1OC	16.9 µg/mL
CC(C)CN(C[C@@H](O)[C@H](Cc1ccccc1)NC(=O)O[C@H]1CO[C@H]2OCC[C@H]21)S(=O)(=O)c1ccc(-c2coc(COCc3ccccc3)n2)cc1	>100 µM
CCOC(=O)c1cc2ccc(Nc3cccc(CF)c3)cc2[nH]1	>80 µM
CCOC(=O)CNc1nc(NC(=O)Nc2ccc(Br)cc2)nc(Oc2cc(=O)oc3ccccc23)n1	>125 µg/mL
CC1=C(C(=O)Nc2ccccc2Cl)C2=NN=C(N)C2C(=O)N1	48.7 µg/mL
CCc1c(Cc2cc(C)cc(C)c2)n(COCC#Cc2ccc(CO[Si](c3ccccc3)(c3ccccc3)C(C)(C)C)cc2)c(=O)[nH]c1=O	>100 µM
COc1cccc(-c2nc(-c3ccc(S(=O)(=O)N(CC(C)C)C[C@@H](O)[C@H](Cc4ccccc4)NC(=O)O[C@H]4CO[C@H]5OCC[C@H]54)cc3)co2)c1	>32.4 µM
O=c1c2ccccc2nc2sc(Nc3ccccc3)nn12	>42.9 µg/mL
CCC(O)(c1ccccc1OC)c1c(C)c(=O)[nH]c(=O)n1COCc1ccccc1	90.34 µM
COC(=O)c1cn([C@@H]2O[C@H](CO)[C@@H](O)[C@H]2O)c2cc(F)ccc2c1=O	31–125 µg/mL
O=C(Cc1ccccn1)NNC(=S)Nc1cccc(Cl)c1	>100 µM
COC(=O)/C=C1\S/C(=N/N=C/c2cccc(OC)c2)NC1=O	61.3 µM
O=c1c2ccccc2nc2scnn12	>82.05 µg/mL
CC(C)CN(C[C@@H](O)[C@H](Cc1ccccc1)NC(=O)O[C@H]1CO[C@H]2OCC[C@H]21)S(=O)(=O)c1ccc(-c2csc(N)n2)cc1	85.1 µM
Cc1ccc(Cl)c(Nc2nnc(Cc3ccccn3)s2)c1	>100 µM
CCOC(=O)CNc1nc(NC(=O)Nc2cccc(Cl)c2)nc(Oc2cc(=O)oc3ccccc23)n1	>125 µg/mL
Cc1ccc(Cl)c(NC(=S)NNC(=O)Cc2ccccn2)c1	>100 µM
CCc1c(Cc2cc(C)cc(C)c2)n(COCC#Cc2cccc(O[Si](c3ccccc3)(c3ccccc3)C(C)(C)C)c2)c(=O)[nH]c1=O	>100 µM

Again, the opening 9 rows:

| structure | value |
|---|---|
| CC1=C(C(=O)Nc2cc(C)ccc2C)C2=NN=C(N)C2C(=O)N1 | 49.5 µg/mL |
| C=C(c1cc(OC)cc(OC)c1)c1c(C)c(=O)[nH]c(=O)n1COCc1ccccc1 | 133 µM |
| COc1cc(OC)cc(OCc2nc3ccccc3n3cccc23)c1 | >100 µM |
| COC(=O)/C=C1\S/C(=N/N=C/c2ccc(N(C)C)cc2)NC1=O | 87.25 µM |
| COc1ccc(CCNc2nc(NC(=O)Nc3ccc(F)cc3)nc(Oc3cc(=O)oc4ccccc34)n2)cc1OC | 19.75 µg/mL |
| CC(=O)Nc1nc(-c2ccc(S(=O)(=O)N(CC(C)C)C[C@@H](O)[C@H](Cc3ccccc3)NC(=O)O[C@H]3CO[C@H]4OCC[C@H]43)cc2)cs1 | 77.6 µM |
| Cc1c(C(C)c2cccc(F)c2)n(COCc2ccccc2)c(=O)[nH]c1=O | >339.3 µM |
| CCOC(=O)CNc1nc(Nc2ccccc2C)nc(Oc2cc(=O)oc3ccccc23)n1 | 23.12 µg/mL |
| COc1cc(OC)cc(OCc2nc3cc(C(F)(F)F)ccc3n3cccc23)c1 | >100 µM |

Two numbers with a dash give a range or band. CCn: concentration that lowers growth or viability of the cells by n%.